Results from patent publication US11147746B2, “Hydrophobic dental surfaces” (priority 2016, dated 2021).

Columns and labels:
[1] = Diametral-compression fracture resistance of restored dentin discs; design: species or system bovine
[2] = Interface impermeability of restored dentin discs (silver nitrate, micro-CT), before and after aging; design: species or system bovine

GKIIKLKASLKLL [GL13K]
bond strength of the dentin-restoration interface ([1]; GL13K layer at dentin surface versus non-coated): did not lower the bond strength | reduction of mechanical strength on removal of the bonding agent ([1]; specimens with hydrophobic (GL13K-coated) dentin): not statistically significant | silver nitrate penetration after aging ([2]; 2-month water storage plus 2,500 thermal cycles, versus control samples): reduction was also significant | increase in silver nitrate volume penetration after aging ([2]; GL13K-coated dentin restored using bonding agent): no significant increase

No end group written: not given here.
